In patent publication US20140302094A1 (UNIVERSITY OF EXETER, published 2014):

Target: the molecule itself
Assay: self-association (heptamer) seen on SDS-PAGE

B1: NetB mutant W262A (W292A in SEQ ID NO:3) (other)
chain: SELNDINKIELKNLSGEIIKENGKEAIKYTSSDTASHKGWKATLSGTFIEDPHSDKKTALLNLEGFIPSDKQIFGSKYYGKMKWPETYRINVKSADVNNNIKIANSIPKNTIDKKDVSNSIGYSIGGNISVEGKTAGAGINASYNVQNTISYEQPDFRTIQRKDDANLASWDIKFVETKDGYNIDSYHAIYGNQLFMKSRLYNNGDKNFTDDRDLSTLISGGFSPNMALALTAPKNAKESVIIVEYQRFDNDYILNWETTQARGTNKLSSTSEYNEFMFKINWQDHKIEYYL
B1: binds.
